The values that follow come from PubChem BioAssay AID504834 (National Center for Advancing Translational Sciences (NCATS), 2011).

The entries are a selection whose mix differs from that of the whole data set. Records with an inconclusive call do not appear. Entries that show only a call come without a potency. Active and inactive are the calls of the source. Calls come from the whole dose curve; as a rule, active = well fitted inhibition curve with a large enough effect; inconclusive = small, poorly fitted or top-dose-only effect, or another doubt; inactive = no such curve, though single readings can be large or run the other way.
Potency is the fitted concentration of half-maximal effect.

The experiment can be described thus: Primary qHTS for delayed death inhibitors of the malarial parasite plastid, 96 hour incubation. Conditions: P. falciparum luciferase reporter growth; series mostly up to 28.7 µM. (In general: Quantitative high-throughput screening tests each substance at several concentrations.)
On to `C(Cc1nn[nH]n1)Cc1nn[nH]n1`, for which the Potency result is “inactive”.
For `O=[N+]([O-])c1ncn(CCn2cnc([N+](=O)[O-])n2)n1`, the Potency result was “inactive”.
Still for that read-out and setting: the same measure for `O=[N+]([O-])c1ccc(O)c(/C=N/Nc2ccc([N+](=O)[O-])cc2[N+](=O)[O-])c1`: “inactive”; for `O=[As](O)(c1ccccc1)c1ccc(O)cc1`: active: 5.86 µM.
On the same count and under the same terms, in the case of `O=P(Nc1nc2ccccc2s1)(c1ccccc1)c1ccccc1` it was “inactive”.
Regarding `C[C@H]1OP(=O)(Oc2ccccc2)[C@H](O)[C@H](O)[C@H]1N=[N+]=[N-]` (stereo partly drawn), the Potency entry was “inactive”.
With `CN(C(=O)Cc1ccccc1)[C@H]1CC[C@@]2(CCCO2)C[C@@H]1N1CCCC1`, the Potency result is “inactive”.
Still for that read-out and setting: the same measure for `O=P(Nc1ccccn1)(c1ccc(Br)cc1)c1ccc(Br)cc1`: “inactive”; for `c1nnnn1CCn1cnnn1`: “inactive”; for `CC(C)C(=O)NC(Sc1ccccc1)C(Cl)(Cl)Cl` (stereo not drawn): “inactive”.
The same measure, in the same setting: the same measure for `CC(=O)Nc1ccc([As](=O)(O)O)c(O)c1`: active: 1.31 µM.
Same read-out and setting: in the case of `CC(=O)Nc1ccc(Oc2c([N+](=O)[O-])cc([N+](=O)[O-])cc2[N+](=O)[O-])cc1` it was “inactive”.
For `CC(=O)c1ccc(N2CC2c2ccncc2)cc1` (stereo not drawn), the Potency result was “inactive”.
Still for that read-out and setting: the same measure for `C=C(CO)CC1CC(O)[C@]2(C)OC3CC4OC5C[C@]6(C)O[C@]7(C)CCC8OC9C[C@]%10(C)OC%11C(C)=CC(=O)OC%11CC%10OC9C[C@@H](C)C8OC7CC6O[C@]5(C)C/C=C\C4OC3CC2O1` (stereo partly drawn): active: 5.86 µM; for `C[C@H]1OP(=O)(Oc2ccccc2)C[C@@H]2O[C@@H]21` (stereo partly drawn): “inactive”; for `CC(C)(C)C(=O)NC(Sc1ccccc1)C(Cl)(Cl)Cl` (stereo not drawn): “inactive”.
On to `CCOc1ccc(C2=NCC(CBr)S2)cc1` (stereo not drawn), for which the activity change, negative = inhibition was inactive: 73.7% [at 1.15 µM].
On to `Cc1ccccc1OP(=O)(Nc1ccccn1)Oc1ccccc1C`, for which the Potency entry was “inactive”.
As for `O=c1c2cc([N+](=O)[O-])ccc2[nH]c2c([N+](=O)[O-])cc([N+](=O)[O-])cc12`, the Potency entry is “inactive”.
The same measure, in the same setting: in the case of `O=C(C[N+]12CCC(CC1)C(OC(=O)c1ccccc1)C2)c1ccc([N+](=O)[O-])cc1` (stereo not drawn) it was active: 11.7 µM; in that of `COC(=O)c1cc2c(s1)N=C(c1ccccc1)N(C)P2(=O)N1CCOCC1` (stereo not drawn), “inactive”.
Still for that read-out and setting: in the case of `O=C(OC1CN2CCC1CC2)c1ccccc1` (stereo not drawn) it was “inactive”.
Still for that read-out and setting: in the case of `CCC(=O)N1C2C3N(C(=O)CC)C1C1N(C(=O)CC)C(C(N1C(=O)CC)N3C(=O)CC)N2C(=O)CC` it was “inactive”; in that of `O=C(NC1CCS(=O)(=O)C1)NP(=S)(Oc1ccccc1)Oc1ccccc1` (stereo not drawn), “inactive”.
For `CCNC(=S)/N=C(\N)N[N+](=O)[O-]`, the Potency result was “inactive”.
With `c1ccc(-c2nn[nH]n2)c(-c2nn[nH]n2)c1`, the Potency entry is “inactive”.
On the same count and under the same terms, in the case of `CCOC(=O)NC(Sc1ccccc1)C(Cl)(Cl)Cl` (stereo not drawn) it was “inactive”.
On the same count and under the same terms, in the case of `Cc1ccc(NP(=O)(Oc2cccc(C)c2)Oc2cccc(C)c2)nc1` it was “inactive”; in that of `Nc1cccc2ccc([As](=O)(O)O)cc12`, active: 2.62 µM.
With `Cc1cc(SC(NC(=O)c2ccc(F)cc2)C(Cl)(Cl)Cl)ncn1` (stereo not drawn), the Potency result is “inactive”.
On the same count and under the same terms, in the case of `CCOP(=O)(Nc1ccccc1)OCC` it was “inactive”; in that of `Cc1ccc(NP(=O)(Oc2ccccc2F)Oc2ccccc2F)nc1`, “inactive”.
Same read-out and setting: the same measure for `C=C(C=O)C[C@@H]1C[C@H](O)C2OC3C[C@]4(C)OC5/C=C\CC6OC7C(CC=CCC6OC5CCCC4OC3CC2O1)OC1CC2OC3CC(=O)OC3C[C@@H](C)C[C@@]2(C)OC1C[C@@H]7C` (stereo partly drawn): “inactive”; for `CC(=O)Nc1ccc([As](=O)(O)O)cc1`: active: 7.38 µM.
Same read-out and setting: in the case of `O=C(O)c1ccccc1[As](=O)(O)O` it was active: 0.329 µM.
Turning to `Nc1cc(N)c2nonc2c1[N+](=O)[O-]`, the Potency entry is “inactive”.
The same measure, in the same setting: the same measure for `CC(C)CC(=O)NC(Sc1ccc(Cl)cc1)C(Cl)(Cl)Cl` (stereo not drawn): “inactive”; for `Oc1ccccc1CNc1ccccn1`: “inactive”; for `O=C(NC(Sc1ccncn1)C(Cl)(Cl)Cl)c1ccccc1` (stereo not drawn): active: 3.29 µM.
Same read-out and setting: the same measure for `COc1ccccc1OP(=O)(Nc1ccc(C)cn1)Oc1ccccc1OC`: “inactive”; for `Cc1ccc(OP(=O)(Nc2nccs2)Oc2ccc(C)cc2)cc1`: “inactive”.
On the same count and under the same terms, in the case of `Clc1ccc(Cl)c(NC2=NCC(CBr)S2)c1` (stereo not drawn) it was “inactive”; in that of `NC(=O)c1cc([N+](=O)[O-])cc([N+](=O)[O-])c1N`, “inactive”; in that of `Cc1ccc(N/C(=N/P(=O)(N2CCOCC2)N2CCOCC2)N2CCOCC2)cc1`, “inactive”.
Take `CN(C)C(=O)OCCc1n(C)cc[n+]1C`: the Potency entry was “inactive”.
Take `CC1CCN(C(=O)Oc2c(Cl)cc(Cl)c3cccnc23)CC1`: the Potency entry is “inactive”.
In the case of `CCN(/C(=N/P(=O)(N1CCOCC1)N1CCOCC1)N1CCOCC1)c1ccc(OC)cc1`, the Potency entry is “inactive”.
On to `CC(=O)N1C2C3N(C(C)=O)C1C1N(C(C)=O)C(C(N1C(C)=O)N3C(C)=O)N2C(C)=O`, for which the Potency result was “inactive”.
The same measure, in the same setting: the same measure for `O=[N+]([O-])c1cccc2n[nH]nc12`: “inactive”.
For the compound `Cc1ccc(NP(=O)(Oc2ccccc2)Oc2ccccc2)nc1`, the Potency result is “inactive”.
Still for that read-out and setting: the same measure for `CCc1nc2c(n1)c1c(non1O)c1c2no[n+]1[O-]`: active: 4.65 µM.
Same read-out and setting: in the case of `COc1ccc(C2=NCC(CBr)S2)cc1` (stereo not drawn) it was “inactive”; in that of `O=[N+]([O-])c1cccc(NC2=NCC(CBr)S2)c1` (stereo not drawn), “inactive”.
Still for that read-out and setting: in the case of `CC(C)(C)C(=O)NC(Sc1ccncn1)C(Cl)(Cl)Cl` (stereo not drawn) it was “inactive”.
For the compound `Cn1c(=O)[nH]c(=O)c2c1nc(Br)n2Cc1ccccc1`, the Potency was active: 13.1 µM.
As for `O=C(Nc1cc([As](=O)(O)O)ccc1O)c1ccccc1`, the Potency is active: 10.4 µM.
On the same count and under the same terms, in the case of `O=[N+]([O-])c1ccc(Nc2ccc(Oc3ccc([N+](=O)[O-])cc3[N+](=O)[O-])cc2)c([N+](=O)[O-])c1` it was “inactive”.
Regarding `Cc1cc(SC(NC=O)C(Cl)(Cl)Cl)ncn1` (stereo not drawn), the Potency result was “inactive”.
Still for that read-out and setting: in the case of `O=P(Nc1ccccn1)(c1cccc2ccccc12)c1cccc2ccccc12` it was “inactive”; in that of `CCOC(=O)Nc1cccc([As](=O)(O)O)c1`, active: 3.29 µM; in that of `Cc1cc(SC(NC(=O)c2ccccc2)C(Cl)(Cl)Cl)nc(C(C)C)n1` (stereo not drawn), “inactive”.
For `CCOC(=O)Nc1ccc([As](=O)(O)O)c(O)c1`, the Potency is active: 1.31 µM.
The same measure, in the same setting: the same measure for `CCOC(=O)c1ccc(NC(=O)C(C)(CCl)SC)cc1` (stereo not drawn): “inactive”; for `O=C(OC1CN2CCC1CC2)c1cccc([N+](=O)[O-])c1` (stereo not drawn): “inactive”; for `O=C(Nc1ccncc1[N+](=O)[O-])c1ccc([N+](=O)[O-])cc1[N+](=O)[O-]`: “inactive”.
With `COP1(=S)c2c(C)nn(CCC#N)c2N=C(c2ccc(F)cc2)N1C` (stereo not drawn), the Potency entry was “inactive”.
Same read-out and setting: in the case of `COc1cc(I)ccc1[As](=O)(O)O` it was active: 4.15 µM; in that of `O=C(OC1CN2CCC1CC2)C12CC3CC(CC(C3)C1)C2` (stereo not drawn), “inactive”.
The same measure, in the same setting: in the case of `Cc1cc(=O)[nH]c(N[N+](=O)[O-])n1` it was “inactive”; in that of `Cc1c2c(nc3ccccc13)SC(C(Cl)Cl)C2` (stereo not drawn), “inactive”; in that of `CC(C)NC(=O)NP(=O)(Oc1ccccc1)Oc1ccccc1`, “inactive”.
With `O=[N+]([O-])c1cc([N+](=O)[O-])c(-c2ccn[nH]2)s1`, the Potency result is “inactive”.
Same read-out and setting: the same measure for `CC(C)c1ccc(OP(=O)(Nc2ccccn2)Oc2ccccc2F)cc1` (stereo not drawn): “inactive”; for `ClCCSc1nnc(-c2cccnc2)o1`: “inactive”.
On the same count and under the same terms, the same measure for `Cc1ccc2nc3c(c(C)c2c1)CC(C(Cl)Cl)S3` (stereo not drawn): “inactive”; for `Cc1ccc(OP(=O)(Nc2ccc([N+](=O)[O-])cn2)Oc2ccc(C)cc2)cc1`: “inactive”.
Still for that read-out and setting: in the case of `O=[As](O)(c1ccc(O)cc1)c1ccccc1O` it was active: 3.7 µM; in that of `C[As](=O)(O)c1cccc(C(=O)O)c1`, “inactive”; in that of `O=[N+]([O-])c1ccc2c(c1)nnn2O`, “inactive”.
In the case of `N#CCCN(C(=O)COC(=O)C(O)(c1ccccc1)c1ccccc1)c1ccc(F)cc1`, the Potency result was “inactive”.
Still for that read-out and setting: the same measure for `CCOP1(=S)c2c(C)nn(CCC#N)c2N=C(c2ccc(F)cc2)N1C` (stereo not drawn): “inactive”.
On the same count and under the same terms, the same measure for `NC(=O)Nc1ccc([As](=O)(O)O)cc1`: active: 9.53 µM; for `O=C(O)COc1ccc([As](=O)(O)O)cc1[N+](=O)[O-]`: “inactive”.
For `Nc1ccccc1[As](=O)(O)c1ccccc1`, the Potency is active: 14.7 µM.
The same measure, in the same setting: the same measure for `CCOP1(=S)c2c(C)nn(CCC#N)c2N=C(c2ccccc2F)N1C` (stereo not drawn): “inactive”; for `O=P(Nc1nccs1)(Oc1ccccc1)Oc1ccccc1`: “inactive”; for `O=P(Nc1nccs1)(c1ccccc1)c1nc2ccccc2s1` (stereo not drawn): “inactive”.
As for `COc1cc(C2NCCC3(OCCO3)C2(C)C)cc(OC)c1OC` (stereo not drawn), the Potency entry was “inactive”.
The same measure, in the same setting: the same measure for `CCOP(=O)(Nc1cccc2ccccc12)OCC`: “inactive”.
In the case of `Nc1cccc2c([As](=O)(O)O)cccc12`, the Potency was active: 2.08 µM.
`Cc1cccc(OCC(=O)OC2CN3CCC2CC3)c1` (stereo not drawn): the Potency entry was “inactive”.
On the same count and under the same terms, the same measure for `O=[As](O)(O)c1cccnc1`: active: 10.4 µM.
On the same count and under the same terms, the same measure for `CS(=O)(=O)c1ccc(Cl)c(NC(=O)COC(=O)C(O)(c2ccccc2)c2ccccc2)c1`: “inactive”; for `O=C(OC1CN2CCC1CC2)c1ccc(Cl)cc1` (stereo not drawn): “inactive”.
Still for that read-out and setting: in the case of `O=[As](O)(c1ccccc1Br)c1ccccc1Br` it was “inactive”.
For the compound `C=C(C=O)CC1CC(O)[C@]2(C)OC3CC4OC5C[C@]6(C)O[C@]7(C)CCC8OC9C[C@]%10(C)OC%11C(C)=CC(=O)OC%11CC%10OC9C[C@@H](C)C8OC7CC6O[C@]5(C)CC5OC5C4OC3CC2O1` (stereo partly drawn), the Potency was active: 4.15 µM.
On the same count and under the same terms, the same measure for `CC(C)/C=N\N=C(\N)N[N+](=O)[O-]`: “inactive”.
Still for that read-out and setting: in the case of `COc1ccccc1CNC(=O)COC(=O)C(O)(c1ccccc1)c1ccccc1` it was “inactive”; in that of `Clc1n[nH]nc1-c1nn[nH][15n]1`, “inactive”; in that of `CC(C)(C)C(=O)NC(Sc1ncccn1)C(Cl)(Cl)Cl` (stereo not drawn), “inactive”.
The same measure, in the same setting: in the case of `CCOP(=O)(Nc1ccc(C)cn1)OCC` it was “inactive”; in that of `CCC1=CC2Cc3nc4ccc(Cl)cc4c(N)c3C(C1)C2` (stereo not drawn), active: 1.04 µM; in that of `Cc1ccc(OCC(=O)OC2CN3CCC2CC3)cc1` (stereo not drawn), “inactive”.
Regarding `NS(=O)(=O)c1cccc(NC(=O)COC(=O)C(O)(c2ccccc2)c2ccccc2)c1`, the Potency entry was “inactive”.
Same read-out and setting: in the case of `O=P1(Nc2ccc(Br)cn2)COc2ccccc2OC1` it was “inactive”.
On the same count and under the same terms, in the case of `O=C(/C=C/c1ccccc1)OC1CN2CCC1CC2` (stereo not drawn) it was “inactive”; in that of `Cc1nn(-c2ccccc2)c2c1P(=O)(N1CCOCC1)N(C)C(c1ccccc1)=N2` (stereo not drawn), “inactive”.
In the case of `Cc1ccc(C(=O)OC2CN3CCC2CC3)cc1` (stereo not drawn), the Potency entry is “inactive”.
